Test results from patent US11291637B2, “Methods for treating or preventing organophosphate poisoning” (dated 2022).

Columns and labels:
[1] = system: paraoxon-induced seizures; assay: Seizure severity (modified Racine scale) after paraoxon intoxication; conditions: isoflurane at 20 and 30 minutes after paraoxon
paraoxon intoxication = assay: Behavioral observation (sedation, appearance) after brief isoflurane in paraoxon-intoxicated rats

FC(F)OC(Cl)C(F)(F)F (stereo not drawn)
seizure stage at the 24 hour time point [1]: 0 stage | duration of mild sedation after cessation of isoflurane (paraoxon intoxication; 2% 3 min then 5% 1 min at 20 or 30 minutes after paraoxon): 45 to 50 min | duration of mild sedation after cessation of isoflurane (paraoxon intoxication; 4%, 4.5% or 5% isoflurane in 100% oxygen for 5 minutes, 1 hour after paraoxon): 45 to 50 min
